PSTVd stem 26 mutant pool in Nicotiana benthamiana

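A pool of all variants was put on leaves of three Nicotiana benthamiana plants. Progeny were sequenced from the inoculated region (day 5), the margin of the inoculated leaf (day 10) and systemic leaves (day 12).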

PSTVd intermediate strain, stem 26: wild type AGGGUACCCU, pool pattern AGGGUNNCNN; upper and lower strand joined, each 5' to 3', the first 5 letters being the upper strand.

Values are reads per thousand in the sample; higher means more abundant, 0 means not found. Each value is the mean of three plants. "Pool" is the share in the plasmid pool used as inoculum, on the same scale. The inoculated region was read from the minus strand, the other sites from the plus strand. IR is the inoculated region, LM the leaf margin, Sys the systemic leaves. Samples held 23,251 to 70,159 reads, so the smallest values rest on one or two reads. Wild type was 44.9 per thousand in the pool and the most common sequence in every sample (inoculated region 297, 323, 447; leaf margin 793, 829, 846; systemic leaves 974, 853, 877). The authors trace changes outside the varied positions to PCR and sequencing errors or to mutation in the plant; presence does not show that a variant is infectious alone.

sequence,pool,IR,LM,Sys
AGGGUACCCC,4.38,34.2,21.8,16.2
AGGGUGCCCA,2.98,0.861,0,0
AGGGUAGCCU,4.24,2.20,0.0546,0.187
AGGGUUACAU,3.29,0.912,0.00992,0
AGGGUAUCCC,2.76,1.91,0.745,0
AGGGUCGCUC,3.22,2.03,0.589,0.0110
AGGGUAACCA,3.90,2.03,0.104,0.0898
AGGGUAUCGA,3.17,1.12,0.0148,0.589
AGGGUGUCGU,3.47,2.31,0.550,0.298
AGGGUCUGAC,0.0329,0,0,0.603
AGGGUUACGU,4.70,2.47,0,0
AGGUUGCCAU,0.0493,0.00788,0,0
AGGGUGACAC,2.99,2.08,0.612,0
AGGGUCGCUU,4.31,1.80,1.27,0.00623
AGGGUACCUC,2.50,2.19,0.765,0
AGGGUCUCUG,3.88,3.04,0.649,0.0165
AGGGUCGGCU,0.0329,0,0,0
AGGGUGCACC,0.0329,0.00875,0,0
AGGGUGCCUC,4.42,3.25,1.42,0.378
AGGGUACGCG,0.0329,0,0,0
AGGGUCGCCU,2.76,0.972,0.0435,0
AGGGUGCGCC,0.0164,0,0,0
AGGGUCUCAC,6.30,7.37,2.26,0.511
AGGGUACCCG,6.02,3.48,0.563,0.245
AGGGUCUACC,0.0493,1.50,0.544,0.670
AGGGUGCCCG,2.70,0.848,0.0173,0
AGGGUACCAG,2.78,0.819,0.0273,0
AGGGUGACCU,4.72,2.48,0.0260,0.0125
AGGGUUGCUG,5.26,2.34,0.00742,0.0934
AGGGGACCCU,0.0329,0.0588,0.523,0.184
AGGGUGGCAA,4.16,1.42,0.829,0.00475
AGGGUCACCU,5.35,1.92,0.0697,0.0788
AGGGUUACAC,4.65,2.02,0.00992,0.0551
AGGGUGGCGU,4.52,1.82,0.00742,0
AGGGUAGUCA,0.0329,0,0,0
AGGGUGUCGA,2.62,2.30,0.646,0.00475
AGGGUGGCGA,2.94,0.838,0.00992,0
AGGGUAGCCG,2.89,0.835,0,0.00623
AGGGUACCGA,2.75,0.768,0,0.0110
AGGGUCGCGG,4.21,1.55,0.00742,0.00475
AGGGUCGCCA,6.02,2.96,1.12,0.0660
AGGGUCCCUA,3.50,1.26,0.00742,0
AGGGUUACGA,2.76,0.677,0,0
AGGGUAGCAA,2.88,0.765,0,0.00475
AGGGUUCCAG,4.23,1.71,0,0
AGGGUCUACU,0.0329,0,0,0
AGGGUCCCAU,3.44,0.884,0.169,0
AGGGUUACCC,0.0493,0.411,0,0.0275
AGGGUCACGG,4.98,3.06,0.0186,0.00475
AGGGUGUUGC,0.0329,1.44,1.21,0.667
AGGGUAACUU,5.38,2.99,1.66,0.690

3 of these entries, quoted again:

- AGGGUCGCGG (pool 4.21) -> IR 1.55; LM 0.00742; Sys 0.00475
- AGGGUUACCC (pool 0.0493) -> IR 0.411; LM 0; Sys 0.0275
- AGGGUGGCGU (pool 4.52) -> IR 1.82; LM 0.00742; Sys 0

Values reported by Wu et al. 2024 (doi:10.1371/journal.ppat.1012142).